The values below are quoted from earlier work in patent publication US20060057614A1 (priority 2004, published 2006).

The chains behind the UniProt entries cited, without tags or fusion partners. Where a name states a change or a piece, a line headed by the entry shows the natural chain unless it says otherwise.
UniProt P36544: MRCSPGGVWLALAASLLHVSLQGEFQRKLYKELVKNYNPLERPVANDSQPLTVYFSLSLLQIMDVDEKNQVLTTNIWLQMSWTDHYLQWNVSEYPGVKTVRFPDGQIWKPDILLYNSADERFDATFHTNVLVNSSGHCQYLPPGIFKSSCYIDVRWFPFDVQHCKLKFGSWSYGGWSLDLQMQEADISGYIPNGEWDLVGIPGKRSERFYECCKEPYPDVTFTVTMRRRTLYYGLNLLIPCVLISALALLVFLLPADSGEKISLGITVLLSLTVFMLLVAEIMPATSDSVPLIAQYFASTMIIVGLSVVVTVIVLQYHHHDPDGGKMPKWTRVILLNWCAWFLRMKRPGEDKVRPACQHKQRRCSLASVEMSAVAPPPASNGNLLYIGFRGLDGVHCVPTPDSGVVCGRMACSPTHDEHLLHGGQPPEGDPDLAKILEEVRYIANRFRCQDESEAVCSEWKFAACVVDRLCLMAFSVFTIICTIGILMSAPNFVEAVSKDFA
UniProt P04775: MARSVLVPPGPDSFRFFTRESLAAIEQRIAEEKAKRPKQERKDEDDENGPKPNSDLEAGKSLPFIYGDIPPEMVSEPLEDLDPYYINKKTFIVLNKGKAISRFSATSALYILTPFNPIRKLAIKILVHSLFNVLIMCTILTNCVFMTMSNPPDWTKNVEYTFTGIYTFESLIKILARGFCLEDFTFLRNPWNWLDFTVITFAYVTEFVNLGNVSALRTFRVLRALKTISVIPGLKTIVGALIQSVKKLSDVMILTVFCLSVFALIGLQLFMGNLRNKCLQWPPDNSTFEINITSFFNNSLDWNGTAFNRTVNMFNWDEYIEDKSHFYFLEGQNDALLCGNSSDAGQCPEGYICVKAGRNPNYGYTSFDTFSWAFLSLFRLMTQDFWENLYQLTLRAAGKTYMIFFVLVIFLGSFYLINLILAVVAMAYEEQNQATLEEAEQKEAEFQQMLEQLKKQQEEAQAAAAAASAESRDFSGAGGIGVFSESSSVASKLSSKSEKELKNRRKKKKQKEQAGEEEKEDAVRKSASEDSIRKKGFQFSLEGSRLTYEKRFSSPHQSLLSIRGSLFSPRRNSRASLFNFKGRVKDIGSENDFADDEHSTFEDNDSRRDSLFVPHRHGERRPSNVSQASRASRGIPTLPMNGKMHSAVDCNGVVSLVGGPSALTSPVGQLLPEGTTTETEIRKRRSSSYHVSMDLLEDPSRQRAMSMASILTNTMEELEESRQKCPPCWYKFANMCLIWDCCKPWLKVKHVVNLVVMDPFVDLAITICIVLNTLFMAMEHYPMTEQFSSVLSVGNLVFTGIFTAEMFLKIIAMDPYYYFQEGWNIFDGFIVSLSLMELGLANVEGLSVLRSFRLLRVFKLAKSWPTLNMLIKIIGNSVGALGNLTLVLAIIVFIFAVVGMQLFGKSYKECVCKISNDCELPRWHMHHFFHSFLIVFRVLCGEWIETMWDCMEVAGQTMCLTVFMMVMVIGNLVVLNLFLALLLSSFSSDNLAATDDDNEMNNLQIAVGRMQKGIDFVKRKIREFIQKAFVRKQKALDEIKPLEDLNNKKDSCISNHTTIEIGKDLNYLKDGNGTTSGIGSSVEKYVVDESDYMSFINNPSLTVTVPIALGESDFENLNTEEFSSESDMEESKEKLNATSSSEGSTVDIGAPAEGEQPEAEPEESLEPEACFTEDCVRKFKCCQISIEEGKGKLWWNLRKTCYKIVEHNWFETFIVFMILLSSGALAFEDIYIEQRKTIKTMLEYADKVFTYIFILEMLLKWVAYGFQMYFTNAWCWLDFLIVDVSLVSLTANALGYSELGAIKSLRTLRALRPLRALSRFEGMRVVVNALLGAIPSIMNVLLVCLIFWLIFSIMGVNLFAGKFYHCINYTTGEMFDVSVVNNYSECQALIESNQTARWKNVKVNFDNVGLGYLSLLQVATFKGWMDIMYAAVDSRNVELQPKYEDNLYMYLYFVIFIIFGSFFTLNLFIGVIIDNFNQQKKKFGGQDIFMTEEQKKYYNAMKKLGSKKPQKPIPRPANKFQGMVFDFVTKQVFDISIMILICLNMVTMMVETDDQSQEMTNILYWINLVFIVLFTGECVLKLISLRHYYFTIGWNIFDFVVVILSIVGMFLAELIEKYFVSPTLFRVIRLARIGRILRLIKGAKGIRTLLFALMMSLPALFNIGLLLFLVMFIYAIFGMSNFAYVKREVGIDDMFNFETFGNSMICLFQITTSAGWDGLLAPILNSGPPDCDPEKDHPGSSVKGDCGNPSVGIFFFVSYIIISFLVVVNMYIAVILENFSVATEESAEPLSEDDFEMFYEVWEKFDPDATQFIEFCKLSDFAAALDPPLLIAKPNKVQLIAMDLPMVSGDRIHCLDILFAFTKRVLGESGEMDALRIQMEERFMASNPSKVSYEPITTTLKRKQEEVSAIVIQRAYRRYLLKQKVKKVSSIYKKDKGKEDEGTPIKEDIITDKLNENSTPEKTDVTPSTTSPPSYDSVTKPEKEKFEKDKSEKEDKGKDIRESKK
UniProt Q00975: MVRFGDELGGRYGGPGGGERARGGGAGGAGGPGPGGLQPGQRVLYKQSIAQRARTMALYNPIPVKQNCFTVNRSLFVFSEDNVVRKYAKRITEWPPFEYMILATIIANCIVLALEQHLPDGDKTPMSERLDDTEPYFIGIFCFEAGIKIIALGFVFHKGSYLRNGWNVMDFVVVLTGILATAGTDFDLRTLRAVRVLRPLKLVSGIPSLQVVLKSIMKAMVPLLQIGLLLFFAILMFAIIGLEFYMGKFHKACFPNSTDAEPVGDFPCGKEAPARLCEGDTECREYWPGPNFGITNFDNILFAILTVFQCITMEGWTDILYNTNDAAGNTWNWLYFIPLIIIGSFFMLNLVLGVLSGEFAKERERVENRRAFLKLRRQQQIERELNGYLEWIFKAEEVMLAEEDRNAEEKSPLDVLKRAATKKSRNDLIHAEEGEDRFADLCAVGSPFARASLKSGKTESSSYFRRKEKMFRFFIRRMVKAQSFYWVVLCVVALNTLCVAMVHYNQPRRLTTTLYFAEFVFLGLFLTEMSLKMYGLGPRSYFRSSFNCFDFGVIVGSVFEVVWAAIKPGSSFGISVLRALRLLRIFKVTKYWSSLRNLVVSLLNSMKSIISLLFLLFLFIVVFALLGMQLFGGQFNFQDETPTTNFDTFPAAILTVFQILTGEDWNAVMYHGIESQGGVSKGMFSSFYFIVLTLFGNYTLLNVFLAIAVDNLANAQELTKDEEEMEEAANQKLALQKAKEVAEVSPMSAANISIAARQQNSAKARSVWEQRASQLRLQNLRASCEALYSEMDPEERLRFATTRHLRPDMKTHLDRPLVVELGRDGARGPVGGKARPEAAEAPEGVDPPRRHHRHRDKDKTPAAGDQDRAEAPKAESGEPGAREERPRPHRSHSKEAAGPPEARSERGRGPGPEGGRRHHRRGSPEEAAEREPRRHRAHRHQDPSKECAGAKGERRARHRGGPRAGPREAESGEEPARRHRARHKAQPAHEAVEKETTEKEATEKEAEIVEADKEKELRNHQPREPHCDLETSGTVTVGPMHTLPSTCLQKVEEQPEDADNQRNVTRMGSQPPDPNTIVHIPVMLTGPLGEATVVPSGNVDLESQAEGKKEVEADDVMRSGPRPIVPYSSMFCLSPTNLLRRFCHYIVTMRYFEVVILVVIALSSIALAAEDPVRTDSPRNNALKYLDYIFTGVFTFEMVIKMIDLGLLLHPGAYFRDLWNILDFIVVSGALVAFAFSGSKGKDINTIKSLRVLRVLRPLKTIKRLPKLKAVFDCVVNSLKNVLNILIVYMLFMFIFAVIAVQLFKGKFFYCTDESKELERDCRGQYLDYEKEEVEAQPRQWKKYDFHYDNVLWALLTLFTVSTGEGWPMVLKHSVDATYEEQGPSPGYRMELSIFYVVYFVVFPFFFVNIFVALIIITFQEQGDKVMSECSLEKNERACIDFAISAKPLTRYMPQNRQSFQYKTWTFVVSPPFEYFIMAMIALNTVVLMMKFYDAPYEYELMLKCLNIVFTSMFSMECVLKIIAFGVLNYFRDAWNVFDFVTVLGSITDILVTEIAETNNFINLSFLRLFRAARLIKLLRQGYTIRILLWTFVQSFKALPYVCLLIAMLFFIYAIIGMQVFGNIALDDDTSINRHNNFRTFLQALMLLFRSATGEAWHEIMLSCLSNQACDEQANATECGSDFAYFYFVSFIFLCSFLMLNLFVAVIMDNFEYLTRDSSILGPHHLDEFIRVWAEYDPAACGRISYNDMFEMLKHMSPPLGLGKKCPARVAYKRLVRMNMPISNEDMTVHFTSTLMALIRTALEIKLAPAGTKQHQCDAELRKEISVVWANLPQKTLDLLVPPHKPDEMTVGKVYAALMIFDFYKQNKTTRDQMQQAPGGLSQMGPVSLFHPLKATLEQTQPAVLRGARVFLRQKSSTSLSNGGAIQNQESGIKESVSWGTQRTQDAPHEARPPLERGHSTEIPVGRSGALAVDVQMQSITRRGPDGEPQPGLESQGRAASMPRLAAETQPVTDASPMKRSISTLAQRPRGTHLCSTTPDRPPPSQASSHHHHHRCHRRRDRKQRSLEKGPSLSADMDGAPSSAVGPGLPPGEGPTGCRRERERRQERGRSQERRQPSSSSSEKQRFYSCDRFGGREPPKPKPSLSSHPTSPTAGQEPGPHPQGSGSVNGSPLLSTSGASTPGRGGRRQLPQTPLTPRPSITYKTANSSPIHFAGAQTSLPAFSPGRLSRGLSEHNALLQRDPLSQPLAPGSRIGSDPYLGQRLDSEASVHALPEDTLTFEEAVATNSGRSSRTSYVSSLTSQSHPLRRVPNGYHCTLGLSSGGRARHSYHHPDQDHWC

Some targets named below: α7nAChR (Homo sapiens, UniProt P36544); Nav1.2 (Rattus norvegicus, UniProt P04775); Cav2.2 (Homo sapiens, UniProt Q00975).
Holding throughout (conditions): soluble toxin; cited from earlier work

On to α-conotoxin PnlB, for which the Affinity on α7nAChR is 61.3 nM. Take μ-o-conotoxin MrVIA: the Affinity at Nav1.2 is 200 nM. Turning to ω-conotoxin MVIIA, the Affinity on Cav2.2 is reported as 1 nM.
